Laboratory results from PMC10619443, “Structural snapshots of Mycobacterium tuberculosis enolase reveal dual mode of 2PG binding and its implication in enzyme catalysis” (IUCrJ, 2023).

Test system: C=C(OP(=O)(O)O)C(=O)O
Test: purified protein
Conditions: pH 7.5; 25.0 °C

With “MtEno (Mycobacterium tuberculosis H37Rv)” the Km was 495.7 ± 45.27 µM.
